IC50 of the conversion reaction data for one molecule are collected here from patent publication US20010041790A1.

The target of the assay is 35S-labeled hamster PrPsen, glycophosphoinositol-negative form (35S-HaPrPsen) (Syrian golden hamster), P04273. Kind of assay: cell-based or functional assay.

In turn, MKHMAGAKAAGAVVGGLGGYMLGSAMSRPMMHF (modifications not checked) [HaP109-141 (K116)] showed an IC50 of the conversion reaction of 150 µM.
